Values of other authors, collected in paper PMC8145641 (Cells, 2021).

System: T. gondii
Conditions: thiosemicarbazides 1a–12a and drugs, as in the earlier paper; ref [25]; cited from earlier work

SMILES	SI (selectivity index)
Cc1nc[nH]c1C(=O)NNC(=S)Nc1ccc(Br)cc1 [9a]	15.35
COc1cc(Cc2cnc(N)nc2N)cc(OC)c1OC [Trimethoprim (TRI), Trimethoprim, reference compound]	> 2.64
Cc1nc[nH]c1C(=O)NNC(=S)Nc1ccccc1I [10a]	9.79
Cc1nc[nH]c1C(=O)NNC(=S)Nc1cccc(I)c1 [11a]	19.16
Cc1nc[nH]c1C(=O)NNC(=S)Nc1ccccc1Cl [4a]	17.69
Nc1ccc(S(=O)(=O)Nc2ncccn2)cc1 [Sulfadiazine (SUL), Sulfadiazine, reference compound]	< 0.92
Cc1nc[nH]c1C(=O)NNC(=S)Nc1ccc(I)cc1 [12a]	8.86
Cc1nc[nH]c1C(=O)NNC(=S)Nc1ccc(Cl)cc1 [6a]	3.15
Cc1nc[nH]c1C(=O)NNC(=S)Nc1cccc(Br)c1 [8a]	15.20
Cc1nc[nH]c1C(=O)NNC(=S)Nc1cccc(Cl)c1 [5a]	11.30
Cc1nc[nH]c1C(=O)NNC(=S)Nc1ccc(F)cc1 [3a]	8.86
Cc1nc[nH]c1C(=O)NNC(=S)Nc1ccccc1Br [7a]	17.91

Which two values form the index is not stated here.
